What was measured:
[1] = system: Plasmodium falciparum; assay: ST_JUDE: Plasmodium falciparum 3D7 EC50 (uM) as measured by SYBR green dye; format: functional, organism-based
[2] = system: Plasmodium falciparum; assay: ST_JUDE: Plasmodium falciparum K1 EC50 (uM) as measured by SYBR green dye; format: functional, organism-based

Structure (SMILES): COc1ccc2c3c1O[C@H]1[C@]4(OC)CC[C@@]5(C[C@@H]4CNC(=O)/C=C/c4ccccc4[N+](=O)[O-])[C@@H](C2)N(C)CC[C@]315
- EC50 [1]: 2.47 µM
- EC50 [2]: 3.57 µM

From ChEMBL document CHEMBL1154198, “Chemical genetics of Plasmodium falciparum” (Nature, 2010)
